Our source for the MIC values is publication PMC10815238, “New N-Terminal Fatty-Acid-Modified Melittin Analogs with Potent Biological Activity” (International Journal of Molecular Sciences, 2024).

One may read the MIC as the least concentration at which growth counts as inhibited.

Values after ≈ are worked out from the molar mass of the structure shown.

This assay deals with Listeria monocytogenes (L. monocytogenes) CVCC 3764. Type of assay: cell-based. As to conditions: NB medium, 37 °C, 18 h, three independent measurements. How it is done:
MIC was determined using the broth microdilution method with minor modification. In brief, bacteria (S. aureus ATCC 43300, E. faecalis ATCC 29212, E. coli ATCC 25922, P. aeruginosa ATCC 27853, L. monocytogenes CVCC 3764, B. cereus CVCC 4101, S. Castellani CGMCC 1.1869, and the multidrug-resistant E. coli strain) were cultured in nutrient broth (NB) medium (Macklin, Shanghai, China) to the logarithmic phase and diluted to 1 × 10^6 colony forming units (CFUs)/mL. The MDLs were dissolved to a final concentration of 256~0.25 μg/mL in NB medium using two-fold dilutions. A total of 50 μL of different concentrations of the MDL solutions and an equal volume of bacterial suspension were added to a 96-well plate, which was then incubated at 37 °C for 18 h. The minimum concentrations of the MDLs with no visible growth of bacteria were defined as the corresponding MICs. Media containing bacteria without the MDLs were set as the negative control. Each measurement was performed independently three times.

For `CC[C@H](C)[C@H](NC(=O)CN)C(=O)NCC(=O)N[C@@H](C)C(=O)N[C@H](C(=O)N[C@@H](CC(C)C)C(=O)N[C@@H](CCCCN)C(=O)N[C@H](C(=O)N[C@@H](CC(C)C)C(=O)N[C@H](C(=O)N[C@H](C(=O)NCC(=O)N[C@@H](CC(C)C)C(=O)N1CCC[C@H]1C(=O)N[C@@H](C)C(=O)N[C@@H](CC(C)C)C(=O)N[C@H](C(=O)N[C@@H](CO)C(=O)N[C@@H](Cc1c[nH]c2ccccc12)C(=O)N[C@H](C(=O)N[C@@H](CCCCN)C(=O)N[C@@H](CCCNC(=N)N)C(=O)N[C@@H](CCCCN)C(=O)N[C@@H](CCCNC(=N)N)C(=O)N[C@@H](CCC(N)=O)C(=O)N[C@@H](CCC(N)=O)C(N)=O)[C@@H](C)CC)[C@@H](C)CC)[C@@H](C)O)[C@@H](C)O)C(C)C)C(C)C` [Mel, Melittin], the MIC turned out to be 32 µg/mL (≈ 11.2 µM).
